Measured values from several laboratories, pooled; numbers as filed in NIAID ChemDB.

Common to all: tests in culture; species: Hepatitis B virus

Rows are shuffled and stem from different studies.

compound,cell line,strain or isolate,read by,endpoint,result
O=C(NCc1ccccc1-c1ccccn1)c1c2n(c(=O)n1-c1ccc(OC3CC3)cc1)CCN(C(=O)c1ccc(Br)c(Cl)c1)C2,HepG2.117,,PCR,EC50,<0.1 µM
COc1cc(C(=O)NC2CC3(C2)CN(c2nc4cc(Cl)ccc4o2)C3)ccn1,Primary human hepatocytes (PHH),,antigen / luminescence,EC50,5.732 µM
Cc1cc(C)n(-c2nc3c(c(=O)n2-c2ccc(N4CCNCC4)nc2)C[C@@H](C)N(C(=O)c2ccc(Br)c(C(F)(F)F)c2)C3)n1,HepG2.117,Genotype D,PCR,EC50,≤0.05 µM
C=C1[C@H](CO)[C@H]1Cn1cnc2c(Cl)ncnc21,,,,EC50,>100 µM
O=C(NCc1ccccc1)c1c2n(c(=O)n1-c1ccc3[nH]c(C(F)(F)F)cc3c1)CCN(C(=O)c1ccc(Br)c(Cl)c1)C2,HepG2.117,,PCR,EC50,0.5–5 µM
CN(CC(=O)Nc1ccc(Cl)cc1Cl)C(=O)c1cccnc1,HepG2.2.15,,PCR,EC90,>100 µM
CNC(=O)c1ccc(-n2c(-n3nc(C)cc3C)nc3c(c2=O)C[C@@H](C)N(C(=O)c2ccc(Br)c(C(F)(F)F)c2)C3)cc1N,HepG2.117,Genotype D,PCR,EC50,≤0.05 µM
Nc1ncnc2c1ncn2[C@@H]1O[C@H](CO)[C@](O)(C(F)(F)F)[C@H]1O,,,,EC50,≥100 µM
Cc1cc(C)n(-c2nc3c(c(=O)n2-c2ccc(N4CC[C@@H](O)C4)nc2)C[C@@H](C)N(C(=O)c2ccc(Br)c(C(F)(F)F)c2)C3)n1,HepG2.117,Genotype D,PCR,EC50,≤0.05 µM
Cc1cc(-n2c(C(=O)NCc3ccccc3)c3n(c2=O)CCN(C(=O)c2ccc(Br)c(Cl)c2)C3)ccc1C#N,HepG2.117,,PCR,EC50,0.5–5 µM
C#CC1(NC(=O)C(=O)c2c(C)c(C(=O)Nc3ccc(F)c(C(F)(F)F)c3)n(C)c2C)CC1(F)F,HepG2.2.15,,PCR,EC50,<0.001 µM
Cc1c(C(=O)Nc2ccc(F)c(F)c2)c2c(n1C)C(=O)NC(C)(C)CC2,HepAD38,,PCR,EC50,0.05–0.499 µM
O=c1cc(Sc2ccc(F)cc2)[nH]c(=O)[nH]1,HepG2 2.2.15,,hybridisation,EC50,>100 µM
Nc1nccc2c1ncn2[C@@H]1O[C@H](CO)[C@@H](O)[C@H]1O,,,,EC50,>10 µM
CN(C)CCOc1ccnc(-n2cc(S(=O)(=O)Nc3ccc4c(C(=O)Nc5ccc(F)c(Cl)c5)n(C)nc4c3)cn2)c1,HepAD38,,PCR,EC50,<100 µM
COc1ccc(CN2CCCn3c(c4n(c3=O)CCN(C(=O)Nc3ccc(F)c(Cl)c3)C4)C2=O)cc1,HepG2.2.15,,PCR,EC50,<0.1 µM
CC1O[C@@H]2C[C@H]3[C@H]4C5=C(C(=O)OCC5=C[C@]13C1=C2C(=O)OCC1)[C@@H](O)[C@]12C(=O)OCCC1=C(C=O)[C@@H](C)O[C@H]42,HepG2.2.15,,PCR,EC50,2.58 µM
Nc1ccn([C@H]2S[C@@H](CO)C=C2F)c(=O)n1,HepAD38,,,EC90,>50 µM
Nc1nc(Cl)c(F)c2ncn([C@@H]3O[C@H](CO)[C@@H](O)[C@H]3O)c12,,,,EC50,>10 µM
Cn1nc2cc(NS(=O)(=O)NC3CN(C(=O)OC(C)(C)C)C3)ccc2c1C(=O)Nc1ccc(F)c(Cl)c1,HepAD38,,PCR,EC50,100–1000 µM
Cc1cc(C)n(-c2nc3c(c(=O)n2-c2ccc(OC[C@H](C)O)cc2)C[C@@H](C)N(C(=O)c2ccc(Br)c(C(F)(F)F)c2)C3)n1,HepG2.117,Genotype D,PCR,EC50,≤0.05 µM
Cn1nc2cc(NS(C)(=O)=O)ccc2c1C(=O)Nc1ccc(F)c(Cl)c1,HepAD38,,PCR,EC50,100–1000 µM
CNc1nc(F)cc2c1ncn2[C@@H]1O[C@H](CO)[C@@H](O)[C@H]1O,,,,EC50,>10 µM
C[C@H](NC(=O)c1c2n(c(=O)n1-c1ccc(OCC(F)(F)F)cc1)CCN(C(=O)c1ccc(Br)c(Cl)c1)C2)c1ccc(OC(C)(C)C(N)=O)cc1F,HepG2.117,,PCR,EC50,0.1–0.5 µM
Cc1cccnc1CNS(=O)(=O)Nc1ccc2c(C(=O)Nc3ccc(F)c(Cl)c3)n(C)nc2c1,HepAD38,,PCR,EC50,100–1000 µM
Nc1nc(N)c2ncn(C=C3CC3CO)c2n1,2.2.15,,,EC50,10 µM
C=C1[C@H](CO)[C@H]1Cn1cnc2c(=O)[nH]c(N)nc21,,,,EC50,>100 µM
CC1O[C@H]2[C@@H]3C4=C(C(=O)OCC4=C[C@@]45C6=C(C(=O)OCC6)[C@@H](C[C@@H]34)OC5C)[C@H]3O[C@H](O)[C@@H]1C1=CCOC(=O)[C@@]132,,,PCR,EC50,5.34 µM
COc1ccc(CN2C[C@H](O)Cn3c(c4n(c3=O)CCN(C(=O)c3ccc(Br)c(Cl)c3)C4)C2=O)c(F)c1,HepG2.117,,PCR,EC50,0.1–0.5 µM
C=C[C@H](C)Nc1nc2c(c(=O)n1-c1ccc(C(=O)N(C)C(=O)OCOC(=O)[C@@H](N)C(C)C)cc1)C[C@@H](C)N(C(=O)c1ccc(Br)c(C(F)(F)F)c1)C2,HepG2.117,Genotype D,PCR,EC50,<0.05 µM
C#CC1(NC(=O)C(=O)c2c(Cl)c(C(=O)Nc3ccc(F)c(C#N)c3)n(C)c2C)CC(F)(F)C1,HepG2.2.15,,PCR,EC50,<0.001 µM
COc1nc(N)nc2c1ncn2/C=C1/C[C@H]1CO,2.2.15,,,EC50,>10 µM
Nc1nc(F)cc2c1ncn2[C@@H]1O[C@H](CO)[C@@H](O)[C@H]1O,,,,EC50,>10 µM
Cc1cc(C)n(-c2nc3c(c(=O)n2-c2ccc(OC[C@@H](O)CO)cc2)C[C@@H](C)N(C(=O)c2ccc(Br)c(C(F)(F)F)c2)C3)n1,HepG2.117,Genotype D,PCR,EC50,0.05–0.5 µM
C[C@H](NC(=O)C(=O)N1CC2(COc3c(cn(C)c3C(=O)Nc3ccc(F)c(Cl)c3)S(=O)(=O)N2)C1)C(F)(F)F,HepAD38,Genotype D,PCR,EC50,<0.5 µM
C=C[C@H](C)Nc1nc2c(c(=O)n1-c1ccc(C(=O)N(C)C(=O)O[C@@H](C)OC(=O)[C@@H](N)C(C)C)cc1)C[C@@H](C)N(C(=O)c1ccc(Br)c(C(F)(F)F)c1)C2,HepG2.117,Genotype D,PCR,EC50,<0.05 µM
CCc1c(Sc2ccc(C)cc2)[nH]c(=O)[nH]c1=O,HepG2 2.2.15,,hybridisation,EC50,52 µM
C=C[C@H](C)Nc1nc2c(c(=O)n1-c1ccc(C(=O)N(C)C(=O)O[C@@H](OC(=O)[C@@H](N)C(C)C)C(C)C)cc1)C[C@@H](C)N(C(=O)c1ccc(Br)c(C(F)(F)F)c1)C2,HepG2.117,Genotype D,PCR,EC50,<0.05 µM
Cn1nc2cc(NS(=O)(=O)c3ccn(-c4ncccn4)n3)ccc2c1C(=O)Nc1ccc(F)c(Cl)c1,HepAD38,,PCR,EC50,<100 µM
Nc1ncnc2c1ncn2[C@H]1C[C@]12C[C@H]2CO,2.2.15,,,EC50,>10 µM
O=C(CNC(=O)Nc1cccc(F)c1)Nc1ccc(Cl)nc1Cl,HepG2.2.15,,PCR,EC90,56 µM
Cn1nc2cc(C(=O)NCCOCCOCCO)ccc2c1C(=O)Nc1ccc(F)c(Cl)c1,HepAD38,,PCR,EC50,100–1000 µM
O=C(NC1CC2CN(c3nc4cc(Cl)ccc4o3)CC2C1)C1CCS(=O)(=O)C1,Primary human hepatocytes (PHH),,antigen / luminescence,EC50,14 µM
Cc1cc(NC(=O)c2c3c(c(C)n2C)C(=O)NC(C)(C)CC3)ccc1F,HepAD38,,PCR,EC50,<0.05 µM
C#CC1(NC(=O)C(=O)c2c(C)c(C(=O)Nc3ccnc(F)c3Br)n(C)c2C)COC1,HepG2.2.15,,PCR,EC50,0.001–0.0099 µM
CN1[C@H](C(=O)Nc2ccc(F)c(Cl)c2)C[C@H](c2ncc(-c3cn(C)cn3)s2)NS1(=O)=O,PHH,Genotype D,fluorescence,EC50,0.041 µM
C[C@@H](NC(=O)C(=O)N1CC2(COc3c(c(Cl)n(C)c3C(=O)Nc3ccc(F)c(Cl)c3)S(=O)(=O)N2)C1)C(F)(F)F,HepAD38,Genotype D,PCR,EC50,<0.5 µM
Cc1cc(NC(=O)c2c3c(c(C)n2C)C(=O)N[C@@H](C)C3)ccc1F,HepAD38,,PCR,EC50,<0.05 µM
C=C[C@H](C)Nc1nc2c(c(=O)n1-c1ccc(C(=O)N(C)CO)cc1)C[C@@H](C)N(C(=O)c1ccc(Br)c(C(F)(F)F)c1)C2,HepG2.117,Genotype D,PCR,EC50,<0.05 µM
C[C@H](NC(=O)c1c2n(c(=O)n1-c1ccc(OC3CC3)cc1)C[C@@H](C)N(C(=O)c1ccc(Br)c(Cl)c1)C2)c1ccccc1F,HepG2.117,,PCR,EC50,0.5–5 µM
C#C[C@](CO)(NC(=O)C(=O)c1c(C)c(C(=O)Nc2ccc(F)c(C#N)c2)n(C)c1C)C1CC1,HepG2.2.15,,PCR,EC50,0.001–0.0099 µM
Nc1[nH]c(=O)c2ncn([C@@H]3O[C@H](CO)[C@@H](O)[C@H]3O)c2c1Br,,,,EC50,>10 µM
Cc1cc(C)cc(Sc2cc(=O)[nH]c(=O)[nH]2)c1,HepG2 2.2.15,,hybridisation,EC50,>100 µM
Cc1cc(C)n(-c2nc3c(c(=O)n2-c2ccc(-c4cnn(C)c4)cc2)C[C@@H](C)N(C(=O)c2ccc(Br)c(C(F)(F)F)c2)C3)n1,HepG2.117,Genotype D,PCR,EC50,≤0.05 µM
Nc1nc2c(ncn2[C@@H]2O[C@H](CO)C(O)(C(F)(F)F)[C@H]2O)c(=O)[nH]1,,,,EC50,≥100 µM
Cc1c2c(c(C(=O)Nc3ccc(F)c(C(F)F)c3)n1C)CCC(C)(C)NC2=O,HepAD38,,PCR,EC50,<0.05 µM
C=C1[C@H](CO)[C@H]1Cn1cnc2c(Cl)nc(N)nc21,,,,EC50,>100 µM
Cc1c(C(=O)C(=O)NC(C)(C)c2ncc[nH]2)c(C)n(C)c1C(=O)Nc1ccc(F)c(C(F)(F)F)c1,HepG2.2.15,,PCR,EC50,0.001–0.0099 µM
CC1O[C@@H]2C[C@H]3[C@H]4C5=C(C(=O)OCC5=C[C@]13C1=C2C(=O)OCC1)[C@@H](O)O[C@@H]4c1cccc2c1CCOC2=O,HepG2.2.15,,PCR,EC50,2.12 µM
CN(C)S(=O)(=O)NCC(=O)Nc1ccc(Cl)nc1Cl,HepG2.2.15,,PCR,EC50,46 µM
COC(=O)[C@H](C)NP(=O)(OCC1C/C1=C\n1cnc2c(N)ncnc21)Oc1ccccc1,2.2.15,,,EC50,1.2 µM
Cc1cc(C)n(-c2nc3c(c(=O)n2-c2ccc(N4CCN(C(C)C)CC4)nc2)C[C@@H](C)N(C(=O)c2ccc(Br)c(C(F)(F)F)c2)C3)n1,HepG2.117,Genotype D,PCR,EC50,≤0.05 µM
CCn1c(C)c2c(c1C(=O)Nc1ccc(F)c(C)c1)CCC(C)(C)NC2=O,HepAD38,,PCR,EC50,<0.05 µM
CC(C)(Oc1ccc(CNC(=O)c2c3n(c(=O)n2-c2ccc(OC4CC4)cc2)CCN(C(=O)c2ccc(Br)c(Cl)c2)C3)c(F)c1)C(N)=O,HepG2.117,,PCR,EC50,<0.1 µM
CC1=CC2c3c(C)cc(-c4cc5ccc(O)cc5o4)cc3O[C@@]3(c4ccc(O)cc4O)Oc4cc(O)ccc4[C@H](C1)C23,HepG2.2.15,,PCR,EC50,3.99 µM
Cn1cc2c(c1C(=O)Nc1ccc(F)c(Cl)c1)OC[C@]1(CCN(C(=O)C(=O)NCC(F)(F)F)C1)NS2(=O)=O,HepAD38,Genotype D,PCR,EC50,<0.5 µM
Cn1cc(S(=O)(=O)Nc2ccc3c(C(=O)Nc4ccc(F)c(Cl)c4)n(C)nc3n2)cn1,HepAD38,,PCR,EC50,>1000 µM
C[C@@H](NC(=O)C(=O)N1CC[C@]2(COc3c(c(Cl)n(C)c3C(=O)Nc3ccc(F)c(C(F)F)c3)S(=O)(=O)N2)C1)C(F)(F)F,HepAD38,Genotype D,PCR,EC50,<0.5 µM
Cc1cc(C)n(-c2nc3c(c(=O)n2-c2ccc(NC4CC(O)C4)nc2)C[C@@H](C)N(C(=O)c2ccc(Br)c(C(F)(F)F)c2)C3)n1,HepG2.117,Genotype D,PCR,EC50,≤0.05 µM
Cc1ccc(F)c(NC(=O)c2c3c(c(C)n2C)C(=O)NC(C)(C)CC3)c1,HepAD38,,PCR,EC50,<0.05 µM
Cn1nc2cc(NCS(=O)(=O)NC[C@H](O)CO)ccc2c1C(=O)Nc1ccc(F)c(Cl)c1,HepAD38,,PCR,EC50,100–1000 µM

A second listing of 4 rows from above:

| compound | cell line | strain or isolate | read by | endpoint | result |
|---|---|---|---|---|---|
| Cn1cc(S(=O)(=O)Nc2ccc3c(C(=O)Nc4ccc(F)c(Cl)c4)n(C)nc3n2)cn1 | HepAD38 |  | PCR | EC50 | >1000 µM |
| CN(C)S(=O)(=O)NCC(=O)Nc1ccc(Cl)nc1Cl | HepG2.2.15 |  | PCR | EC50 | 46 µM |
| Cn1cc2c(c1C(=O)Nc1ccc(F)c(Cl)c1)OC[C@]1(CCN(C(=O)C(=O)NCC(F)(F)F)C1)NS2(=O)=O | HepAD38 | Genotype D | PCR | EC50 | <0.5 µM |
| C#CC1(NC(=O)C(=O)c2c(C)c(C(=O)Nc3ccnc(F)c3Br)n(C)c2C)COC1 | HepG2.2.15 |  | PCR | EC50 | 0.001–0.0099 µM |

a–b is a range or a potency band. ECn is the concentration giving n% inhibition of infection, replication or growth. Blank or dashed fields: not listed here.